The data set concerns N-acetyl-PPT deacetylase (Deac1 protein). As to the kind of experiment: Radioactive test of purified N-acetyl-PPT deacetylase (Deac1) with [14C]-N-acetyl-L-PPT, HPLC. Type of data set: biochemical, Stenotrophomonas sp.

Here are results for 1 molecule from patent US6555733B2, “Genes coding for amino acid deacetylases with specificity for N-acetyl-L-phosphinothricin, their isolation and use” (priority 1996, dated 2003).

B1: N-acetyl-PPT deacetylase: deacetylase from Stenotrophomonas sp., 454 amino acids (SEQ ID NO:2), purified from E. coli as GST fusion cleavage product (protein)
chain: MIRKTVLLTALSCALASATATAAEGQRPEVEAAAARLQRQVVEWRRDFHQHPELSNREVRTAAKVAERLRAMGLQPQTGVAVHGVVAIIKGALPGPKIALRADMDALPVTEQTGLPFASTATAEYRGEKVGVMHACGHDAHTATLLGVADALVAMRDTLPGEVMLIFQPAEEGAPPPEQGGAELMLKEGLFKEFKPEAVFGLHVFSSVQAGQIAVRGGPLMAASDRFAITVNGRQTHGSAPWNGIDPIVAASDLIGTAQTIVSRRANLSKQPAVLTFGAIKGGIRYNIIPDSVEMVGTIRTFDPDMRKQIFADLRNVAEHTAAAHGATATTDIYEKDGNPATVNDPALTARMLPSLQAVVGKDNVYEPPLQMGSEDFSLYAQQVPAMFFFVGSTGAGIDPATAPSNHSPKFLLDEKALDVGLRALLQVSLDYLHGGKAG
modifications: Stenotrophomonas sp
Take B1: the temperature optimum (tested 28-60 °C) turned out to be 37 °C. Further, the pH optimum (tested between pH=6 and 9) stood at 8.
